A compilation of properties of binary mixtures (doi:10.1021/acs.jpcc.7b02296)

Experiment: xn = mol fraction of the nth substance listed
Settings: 100 kPa

O=S(=O)(F)[N-]S(=O)(=O)F.[Li+] + CC[n+]1ccn(C)c1.O=S(=O)(F)[N-]S(=O)(=O)F
Settings	electrical conductivity [S/m]	mass density [kg/m3]	viscosity [mPa·s]
268 K, x1 = 0.1	0.41	–	–
268 K, x1 = 0.3	0.18	–	–
278 K, x1 = 0.1	0.64	1488	53.7
278 K, x1 = 0.2	0.48	1521	81
278 K, x1 = 0.4	0.17	1598	252.1
288 K, x1 = 0.1	0.92	1478	35.8
288 K, x1 = 0.3	0.49	1547	81.3
288 K, x1 = 0.4	0.29	1588	141.9
298 K, x1 = 0.1	1.26	1469	25.3
298 K, x1 = 0.2	1.01	1501	36.3
298 K, x1 = 0.3	0.72	1538	53.1
298 K, x1 = 0.4	0.46	1578	87.4
308 K, x1 = 0.1	1.63	1460	18.5
318 K, x1 = 0.1	2.07	1451	14.1
318 K, x1 = 0.2	1.73	1481	19.3
318 K, x1 = 0.4	0.9	1557	40.1
328 K, x1 = 0.1	2.57	1441	11
328 K, x1 = 0.2	2.18	1471	14.8
328 K, x1 = 0.3	1.68	1508	20
328 K, x1 = 0.4	1.19	1547	29
338 K, x1 = 0.1	3.07	1432	8.8
338 K, x1 = 0.2	2.66	1460	11.5
338 K, x1 = 0.3	2.09	1498	15.4
348 K, x1 = 0.1	3.64	1423	7.1
348 K, x1 = 0.2	3.15	1450	9.2
348 K, x1 = 0.3	2.52	1488	12.2
358 K, x1 = 0.1	4.25	1414	5.9
358 K, x1 = 0.2	3.69	1440	7.4
358 K, x1 = 0.3	3.03	1478	9.7
358 K, x1 = 0.4	2.28	1515	13.1
368 K, x1 = 0.1	4.9	–	–
368 K, x1 = 0.2	4.32	–	–
368 K, x1 = 0.3	3.54	–	–
368 K, x1 = 0.4	2.71	–	–

CC[n+]1ccn(C)c1.O=S(=O)(F)[N-]S(=O)(=O)F + O=S(=O)(F)[N-]S(=O)(=O)F.[Li+]
x2 = 0
Settings	electrical conductivity [S/m]	viscosity [mPa·s]
268 K	0.58	–
288 K	1.21	26.4
298 K	1.61	–
318 K	2.57	11.1
328 K	3.11	8.9
348 K	4.39	5.9
358 K	5.1	4.9
368 K	5.79	–
378 K	6.71	–
388 K	7.5	–
